# Share of PSTVd loop 15 variants by leaf site

Region: loop 15 of PSTVd (intermediate strain), upper and lower strand joined, each 5' to 3', the first 7 letters being the upper strand, closing pairs included. Wild type: GGAAACCGCUACUAC. Varied positions (N): GGAAACCGNNNNNNC.

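Three N. benthamiana plants were inoculated with the whole mutant pool. Progeny were sequenced from the inoculated region (day 5), the margin of the inoculated leaf (day 10) and systemic leaves (day 12).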

Numbers give reads per thousand; 0 = not seen among the reads, higher = more abundant.
Each site shows the three plants.
"Pool" is the share in the plasmid pool used as inoculum, on the same scale.
The inoculated region was read from the minus strand, the other sites from the plus strand.
Samples held 43,870 to 66,106 reads, so the smallest values rest on one or two reads.
Wild type was 33.9 per thousand in the pool and the most common sequence in every sample (inoculated region 202, 200, 159; leaf margin 724, 746, 710; systemic leaves 856, 883, 880).
The authors trace changes outside the varied positions to PCR and sequencing errors or to mutation in the plant; presence does not show that a variant is infectious alone.

sequence,pool,inoculated region,leaf margin,systemic leaves
GGAAACCGCUGAAUC,0.272,0.115 / 0.0964 / 0.114,0 / 0 / 0,0.0161 / 0 / 0.0228
GGAAACCGCUGACAC,0.240,0.0491 / 0.145 / 0.114,0 / 0.0445 / 0,0 / 0 / 0
GGAAACCGCUGACCC,0.240,0.0655 / 0.112 / 0.133,0 / 0.0223 / 0.0401,0 / 0 / 0
GGAAACCGCUGACGC,0.224,0.0655 / 0.0964 / 0.0381,0 / 0 / 0,0 / 0 / 0
GGAAACCGCUGACUC,0.144,0.0655 / 0.0482 / 0.0762,0 / 0 / 0.0200,0 / 0 / 0
GGAAACCGCUGAGAC,0.256,0.0819 / 0.0482 / 0.0762,0 / 0.0223 / 0.0401,0 / 0 / 0
GGAAACCGCUGAGCC,0.128,0.197 / 0.145 / 0.171,0 / 0.0223 / 0,0 / 0 / 0
GGAAACCGCUGAGGC,0.192,0.0328 / 0.112 / 0.0190,0 / 0.0223 / 0.0401,0 / 0 / 0
GGAAACCGCUGAGUC,0.224,0.0328 / 0.112 / 0.0381,0.0162 / 0 / 0,0 / 0 / 0
GGAAACCGCUGAUAC,0.0960,0.311 / 0.353 / 0.419,0.113 / 0.0445 / 0.180,0.0322 / 0.0756 / 0.0912
GGAAACCGCUGAUCC,0.432,0.0819 / 0.145 / 0.0952,0.0162 / 0.0223 / 0.0401,0 / 0 / 0
GGAAACCGCUGAUGC,0.224,0.147 / 0.0964 / 0.0952,0 / 0 / 0,0 / 0 / 0
GGAAACCGCUGAUUC,0.192,0.197 / 0.145 / 0.305,0.0485 / 0.111 / 0.120,0.0483 / 0 / 0
GGAAACCGCUGCAAC,0.192,0.0983 / 0.129 / 0.0762,0 / 0 / 0,0 / 0 / 0
GGAAACCGCUGCACC,0.256,0.164 / 0.112 / 0.228,0.0323 / 0 / 0,0 / 0 / 0
GGAAACCGCUGCAGC,0.256,0.0655 / 0.0964 / 0.133,0 / 0 / 0,0 / 0 / 0
GGAAACCGCUGCAUC,0.192,0.0491 / 0.0643 / 0.0952,0 / 0 / 0.0601,0 / 0 / 0
GGAAACCGCUGCCAC,0.176,0.131 / 0.0482 / 0.0762,0.0162 / 0 / 0,0 / 0 / 0
GGAAACCGCUGCCCC,0.272,0.0655 / 0.0803 / 0.114,0 / 0 / 0.0200,0 / 0 / 0
GGAAACCGCUGCCGC,0.240,0.0655 / 0.0803 / 0.209,0.0485 / 0.0223 / 0.0200,0 / 0 / 0
GGAAACCGCUGCCUC,0.256,0.131 / 0.112 / 0.0952,0 / 0 / 0,0.0161 / 0 / 0
GGAAACCGCUGCGAC,0.176,0.0819 / 0.0482 / 0.0952,0 / 0 / 0.0401,0 / 0 / 0
GGAAACCGCUGCGCC,0.336,0.115 / 0.161 / 0.133,0 / 0 / 0,0 / 0 / 0
GGAAACCGCUGCGGC,0.192,0.0819 / 0.0964 / 0.114,0 / 0.0223 / 0.0401,0 / 0 / 0
GGAAACCGCUGCGUC,0.176,0.0983 / 0.0964 / 0.133,0 / 0.0223 / 0.0401,0 / 0 / 0
GGAAACCGCUGCUAC,0.352,0.442 / 0.321 / 0.666,0.275 / 0.334 / 0.301,0.0966 / 0.0756 / 0
GGAAACCGCUGCUCC,0.144,0.0983 / 0.0803 / 0.0381,0.0323 / 0 / 0.0200,0 / 0 / 0
GGAAACCGCUGCUGC,0.176,0.0491 / 0.0803 / 0.0571,0 / 0 / 0.0200,0 / 0 / 0
GGAAACCGCUGCUUC,0.176,0.0983 / 0.0803 / 0.190,0.0162 / 0 / 0,0 / 0 / 0
GGAAACCGCUGGAAC,0.352,0.0655 / 0.0643 / 0.0571,0 / 0.0223 / 0.0801,0 / 0 / 0
GGAAACCGCUGGACC,0.128,0.131 / 0.0964 / 0.0571,0 / 0.0445 / 0,0 / 0 / 0
GGAAACCGCUGGAGC,0.272,0.147 / 0.0964 / 0.171,0 / 0.0223 / 0,0 / 0 / 0
GGAAACCGCUGGAUC,0.256,0.115 / 0.161 / 0.171,0.0162 / 0 / 0.0200,0 / 0 / 0
GGAAACCGCUGGCAC,0.336,0.0819 / 0.129 / 0.0381,0 / 0 / 0.0401,0 / 0 / 0
GGAAACCGCUGGCCC,0.256,0.115 / 0.0643 / 0.0762,0.0323 / 0 / 0,0 / 0 / 0

Extract of 5 entries:

sequence	pool	inoculated region	leaf margin	systemic leaves
GGAAACCGCUGGAAC	0.352	0.0655 / 0.0643 / 0.0571	0 / 0.0223 / 0.0801	0 / 0 / 0
GGAAACCGCUGCGCC	0.336	0.115 / 0.161 / 0.133	0 / 0 / 0	0 / 0 / 0
GGAAACCGCUGGAUC	0.256	0.115 / 0.161 / 0.171	0.0162 / 0 / 0.0200	0 / 0 / 0
GGAAACCGCUGCCCC	0.272	0.0655 / 0.0803 / 0.114	0 / 0 / 0.0200	0 / 0 / 0
GGAAACCGCUGACCC	0.240	0.0655 / 0.112 / 0.133	0 / 0.0223 / 0.0401	0 / 0 / 0

Reference: Wu et al. 2024, doi:10.1371/journal.ppat.1012142.